Each structure is given as a SMILES string. The list shows a part of the results, in another mix than the full data. Entries with a potency or affinity are not part of this list. Activity calls are given as the source filed them. Cut-off read from the data, not from the text of the source: active = inhibition above about 13%; inconclusive = no clear call, values can overlap the other calls; inactive = below that.

The chains behind the UniProt entries cited, without tags or fusion partners. Where a name states a change or a piece, a line headed by the entry shows the natural chain unless it says otherwise.
UniProt P9WMN3: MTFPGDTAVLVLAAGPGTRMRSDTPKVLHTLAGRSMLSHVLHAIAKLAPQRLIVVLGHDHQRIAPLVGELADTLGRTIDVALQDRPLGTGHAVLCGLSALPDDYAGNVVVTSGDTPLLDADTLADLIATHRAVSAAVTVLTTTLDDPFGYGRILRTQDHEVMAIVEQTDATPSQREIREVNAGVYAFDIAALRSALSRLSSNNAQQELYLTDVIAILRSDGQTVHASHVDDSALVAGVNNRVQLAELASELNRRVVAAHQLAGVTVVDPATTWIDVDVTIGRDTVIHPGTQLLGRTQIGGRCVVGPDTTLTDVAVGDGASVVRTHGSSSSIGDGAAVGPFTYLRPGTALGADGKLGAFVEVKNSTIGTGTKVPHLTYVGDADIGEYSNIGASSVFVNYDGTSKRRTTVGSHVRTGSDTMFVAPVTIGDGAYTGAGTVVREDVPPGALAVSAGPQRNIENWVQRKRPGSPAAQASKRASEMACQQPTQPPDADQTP

The target of this experiment is Bifunctional protein GlmU (Mycobacterium tuberculosis (strain ATCC 25618 / H37Rv)) (UniProt P9WMN3). In words: inhibition of mycobacterial GlmU enzyme – biochemical, glucosamine-1-phosphate acetyltransferase (AID 1376).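 Note: 0% = complete reaction with vehicle and 100% = reaction without substrate.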 The settings on record: M. tuberculosis GlmU acetyltransferase enzyme assay; active compounds read high;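 tested at 30 µM in the primary screen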.
One may read the inhibition as the drop in the measured response relative to a control, in per cent. For `CCCOP(=S)(Nc1nc(N)cc(=O)[nH]1)OCCC`, the inhibition was inactive: 3.59%.
For `COc1cc(C2NCCC3(OCCO3)C2(C)C)cc(OC)c1OC` (stereo not given), the inhibition is inactive: -4.51%.
Regarding `CCOP(=O)(Nc1cccc2ccccc12)OCC`, the inhibition is inactive: 3.8%.
As to `Cc1c2c(nc3ccccc13)SC(C(Cl)Cl)C2` (stereo not given), the inhibition was inactive: -0.45%.
To `O=C(OC1CN2CCC1CC2)C12CC3CC(CC(C3)C1)C2` (stereo not given) belongs inactive: 3.58%; to `Cc1cc(=O)[nH]c(N[N+](=O)[O-])n1`, inactive: -4.08%.
In the case of `COc1ccc2nc(NP(=O)(c3ccccc3)c3ccccc3)sc2c1` it was inactive: 3.38%.
In the case of `COc1cc(I)ccc1[As](=O)(O)O` it was inactive: -0.03%; in that of `COc1ccc(N/C(=N/P(=O)(N2CCOCC2)N2CCOCC2)N2CCOCC2)cc1`, inactive: 2.59%; in that of `C[As](=O)(O)c1cccc(C(=O)O)c1`, inactive: 2.97%.
Regarding `O=[As](O)(c1ccc(O)cc1)c1ccccc1O`, the inhibition was inactive: 2.95%.
As to `Cc1ccc(OP(=O)(Nc2ccc([N+](=O)[O-])cn2)Oc2ccc(C)cc2)cc1`, the inhibition is inactive: -1.92%.
In the case of `Cc1ccc2nc3c(c(C)c2c1)CC(C(Cl)Cl)S3` (stereo not given), the inhibition is inactive: 4.78%.
Turning to `ClCCSc1nnc(-c2cccnc2)o1`, the inhibition was inactive: -0.28%.
In the case of `CC(C)c1ccc(OP(=O)(Nc2ccccn2)Oc2ccccc2F)cc1` (stereo not given) it was inactive: 0.25%; in that of `CC(C)NC(=O)NP(=O)(Oc1ccccc1)Oc1ccccc1`, inactive: -1.2%.
As for `CCN(CC)C(=S)SC(NC=O)C(Cl)(Cl)Cl` (stereo not given), the inhibition was inactive: 1.1%.
With `O=[N+]([O-])c1cc([N+](=O)[O-])c(-c2ccn[nH]2)s1`, the inhibition was inactive: -3.32%.
In the case of `Cc1cc(SC(NC(=O)c2ccccc2)C(Cl)(Cl)Cl)nc(C(C)C)n1` (stereo not given) it was inactive: 3.3%.
To `Cc1cc(SC(NC=O)C(Cl)(Cl)Cl)ncn1` (stereo not given) belongs inactive: 4.44%.
As for `O=P(Nc1ccccn1)(c1cccc2ccccc12)c1cccc2ccccc12`, the inhibition was inactive: -1.81%.
In the case of `O=[N+]([O-])c1ccc(Nc2ccc(Oc3ccc([N+](=O)[O-])cc3[N+](=O)[O-])cc2)c([N+](=O)[O-])c1` it was inactive: 12.7%; in that of `COP1(=S)c2c(C)nn(CCC#N)c2N=C(c2ccc(F)cc2)N1C` (stereo not given), inactive: -0.86%; in that of `CCOC(=O)c1ccc(NC(=O)C(C)(CCl)SC)cc1` (stereo not given), inactive: -4.31%.
On to `CCC(C)N(CC(C)C)C(=S)SC(NC(C)=O)C(Cl)(Cl)Cl` (stereo not given), for which the inhibition is inactive: 2.25%.

For the origin of these results see PubChem BioAssay AID1376 (SRMLSC, 2008).
